US9404916B2, “Use of a protein kinase inhibitor to detect immune cells, such as T cells” (University College Cardiff Consultants Limited, priority 2008, dated 2016)

Molecular target: F5 TCR (on splenocytes of F5 TCR transgenic mice)

Substance: H2-Db/… (SEQ ID NO:7)-PE tetramer (from UniProt P01899 25-309) (peptide-MHC)
- MFI: 156 and 234

Several values for one entry are separate records, joined by “and”; a condition that tells them apart may be missing. Identical values can stand only once.
